Laboratory results as given in publication PMC9926490, “Structural Basis for Cyclosporin Isoform-Specific Inhibition of Cyclophilins from Toxoplasma gondii” (ACS Infectious Diseases, 2023).

Test system: C[C@H](NC(=O)CCC(=O)O)C(=O)N[C@@H](C)C(=O)N1CCC[C@H]1C(=O)N[C@@H](Cc1ccccc1)C(=O)Nc1ccc([N+](=O)[O-])cc1
Assay: purified protein, by the assay type
Settings: other: substrate AAPF, 0 °C, pH 8.0

TgCyp18.4 H111W (Toxoplasma gondii VEG; H111W)
Km: 719 ± 132 µM | kcat: 8.31 s⁻¹ | kcat/Km: 12000 M⁻¹ s⁻¹
